According to PubChem BioAssay AID624173 (National Center for Advancing Translational Sciences (NCATS), 2012):
Values joined by “and” are separate entries in the source; they are usually repeats but may differ in a detail not shown here. Identical values can stand only once. The entries are a selection whose mix differs from that of the whole data set. Active and inactive are the calls of the source. The call rests on the fitted dose curve; in most records, active means well fitted inhibition curve with a large enough effect; inconclusive means small, poorly fitted or top-dose-only effect; inactive means flat fitted curve, though single readings scatter.

The compounds below were run against pyruvate kinase (Trypanosoma brucei) (UniProt Q57TT1) (assay: qHTS of Trypanosoma Brucei Inhibitors). Settings: TbPYK enzyme, Kinase-Glo Plus ATP luminescence, 45 min; at 76.8 µM (top of the series) unless noted.
Further: nearly all actives have a fitted effect of over 50% in size.
On the % scale 0 is the no-effect control and ±100 the full control effect.

| SMILES | activity, negative = inhibition |
| --- | --- |
| CC(=O)Nc1ccc([As](=O)(O)O)cc1 | inactive: 0.536% |
| CN(C)P(=O)(N(C)C)n1c(Nc2ccccc2)nnc1-c1ccccc1 | inactive: 6.95% |
| O=P(Nc1nc2ccc(Cl)cc2s1)(c1ccccc1)c1ccccc1 | inactive: 0.548% |
| O=[N+]([O-])c1cccc(NC2=NCC(CBr)S2)c1 (stereo unspecified) | inactive: -1.27% |
| COC(=O)C1(C)COP(=O)(Nc2ccccc2)OC1 (stereo unspecified) | inactive: -18.9% |
| O=C(O)CNc1ccc([As](=O)(O)O)cc1 | inactive: -7.26% |
| CC(C)(C)C(=O)NC(Sc1ccncn1)C(Cl)(Cl)Cl (stereo unspecified) | inactive: -15.3% |
| O=[N+]([O-])c1ncn(CCn2ncnc2[N+](=O)[O-])n1 | inactive: -0.319% |
| O=C(Nc1cc([As](=O)(O)O)ccc1O)c1ccccc1 | inactive: -3.96% |
| O=P1(N(CCCl)CCCl)OCCCS1 (stereo unspecified) | inactive: -3.01% |
| CN(C)C(=O)OCCc1n(C)cc[n+]1C | inactive: 0.0792% |
| CC(C)=N/N=C(\N)N[N+](=O)[O-] | inactive: -2.07% |
| CC(C)c1nc(Nc2ccccc2)n(P(=O)(N(C)C)N(C)C)n1 | inactive: 1.03% |
| CC1CCN(C(=O)Oc2c(Cl)cc(Cl)c3cccnc23)CC1 | inactive: -6.31% |
| Nc1ccc([As](=O)(O)c2ccc(N)cc2)cc1 | inactive: 0.496% |
| CCN(/C(=N/P(=O)(N1CCOCC1)N1CCOCC1)N1CCOCC1)c1ccc(OC)cc1 | inactive: -0.223% |
| O=[N+]([O-])c1cccc2n[nH]nc12 | inactive: -1.06% |
| CC(=O)N1C2C3N(C(C)=O)C1C1N(C(C)=O)C(C(N1C(C)=O)N3C(C)=O)N2C(C)=O | inactive: 7.6% |
| CCc1nc2c(n1)c1c(non1O)c1c2no[n+]1[O-] | inactive: -0.987% |
| O=[N+]([O-])c1cc([N+](=O)[O-])c(CCNc2ccccc2)c([N+](=O)[O-])c1 | inactive: -4.88% |
| Cc1ccc(NP(=O)(Oc2ccccc2)Oc2ccccc2)nc1 | inactive: 6.54% |
| COc1ccc(C2=NCC(CBr)S2)cc1 (stereo unspecified) | inactive: 2.49% |

| SMILES | activity, negative = inhibition |
| --- | --- |
| c1nnnn1CCn1cnnn1 | inactive: 0.0258% |
| CC(C)C(=O)NC(Sc1ccccc1)C(Cl)(Cl)Cl (stereo unspecified) | inactive: 2.37% |
| O=P(Nc1nccs1)(c1ccccc1)c1ccccc1 | inactive: 10.4% |
| Nc1ccc([As](=O)(O)c2ccc([N+](=O)[O-])cc2)cc1 | inactive: -4.04% |
| C(Cc1nn[nH]n1)Cc1nn[nH]n1 | inactive: -2.37% |
| O=C(OC1CN2CCC1CC2)c1cccc(Cl)c1 (stereo unspecified) | inactive: 4.3% |
| O=[N+]([O-])c1ccc(O)c(/C=N/Nc2ccc([N+](=O)[O-])cc2[N+](=O)[O-])c1 | inactive: 2.39% |
| CC(=O)NC(SC(=S)N(C)C)C(Cl)(Cl)Cl (stereo unspecified) | inactive: -13.9% |
| O=[N+]([O-])c1ncn(CCn2cnc([N+](=O)[O-])n2)n1 | inactive: 0.518% |
| O=[As](O)(c1ccccc1)c1ccc(O)cc1 | inactive: 4.72% |
| C[C@H]1OP(=O)(Oc2ccccc2)[C@H](O)[C@H](O)[C@H]1N=[N+]=[N-] (stereo partly specified) | inactive: -3.84% |
| O=P(Nc1nc2ccccc2s1)(c1ccccc1)c1ccccc1 | inactive: -9.13% |
| CN(C(=O)Cc1ccccc1)[C@H]1CC[C@@]2(CCCO2)C[C@@H]1N1CCCC1 | inactive: 5.33% |
| Cc1cc([N+](=O)[O-])cc([N+](=O)[O-])c1O | inactive: 5.16% [at 157 µM] |
| Nc1ccc(CCCCOc2ccccc2)cc1 | inactive: 5.3% |
| COc1ccc(N)c([N+](=O)[O-])c1[N+](=O)[O-] | inactive: 0.489% |
| O=P(Nc1ccccn1)(c1ccc(Br)cc1)c1ccc(Br)cc1 | inactive: -1.04% |
| CN(C)C1(CNC(=O)c2ccc(Cl)c(S(N)(=O)=O)c2)CCCCC1 | inactive: 0.842% |
| CN(C)C(=O)Oc1noc2ccccc12 | inactive: -19.3% |
| O=c1c2cc([N+](=O)[O-])ccc2[nH]c2c([N+](=O)[O-])cc([N+](=O)[O-])cc12 | inactive: 1.38% |
| Cc1ccccc1OP(=O)(Nc1ccccn1)Oc1ccccc1C | inactive: -18.4% |
| CC(NC(=O)COC(=O)C(O)(c1ccccc1)c1ccccc1)c1ccccc1 (stereo unspecified) | inactive: -7.97% |

| SMILES | activity, negative = inhibition |
| --- | --- |
| CC(=O)NC(SC(=S)N(CC(C)C)CC(C)C)C(Cl)(Cl)Cl (stereo unspecified) | inactive: -12.8% |
| Cc1ccc(OP(=O)(Nc2ccccn2)Oc2ccc(C)cc2)cc1 | inactive: 1.05% |
| COC(=O)c1cc2c(s1)N=C(c1ccccc1)N(C)P2(=O)N1CCOCC1 (stereo unspecified) | inactive: -5.65% |
| CCC(=O)N1C2C3N(C(=O)CC)C1C1N(C(=O)CC)C(C(N1C(=O)CC)N3C(=O)CC)N2C(=O)CC | inactive: -3.02% |
| O=C(OC1CN2CCC1CC2)c1ccccc1 (stereo unspecified) | inactive: 0% and inactive: -0.174% |
| O=P1(N(CCCl)CCCl)OCCC2CCCCN21 (stereo unspecified) | inactive: 2.98% |
| CCNC(=S)/N=C(\N)N[N+](=O)[O-] | inactive: 1.91% |
| O=C(NC1CCS(=O)(=O)C1)NP(=S)(Oc1ccccc1)Oc1ccccc1 (stereo unspecified) | inactive: -0.988% |
| Cc1ccc(NP(=O)(Oc2cccc(C)c2)Oc2cccc(C)c2)nc1 | inactive: 5.36% |
| c1ccc(-c2nn[nH]n2)c(-c2nn[nH]n2)c1 | inactive: -7.28% |
| CC(=O)Nc1ccc(Oc2c([N+](=O)[O-])cc([N+](=O)[O-])cc2[N+](=O)[O-])cc1 | inactive: -0.743% |
| CC(=O)Nc1ccc([As](=O)(O)O)c(O)c1 | inactive: -0.986% |
| COC(=O)C1(C)COP(=O)(NCc2ccccc2)OC1 (stereo unspecified) | inactive: -22.7% |
| N#C/C(=C\c1ccc(N(CCBr)CCBr)cc1)C(N)=O | inactive: -4.01% |
| CC(=O)c1ccc(N2CC2c2ccncc2)cc1 (stereo unspecified) | inactive: 1.45% |
| C[C@@H]1C=CCP(=O)(Oc2ccccc2)O1 (stereo partly specified) | inactive: 1.94% |
| C[C@H]1OP(=O)(Oc2ccccc2)C[C@@H]2O[C@@H]21 (stereo partly specified) | inactive: 1.73% |
| Cc1ccccc1CN(C)C(=O)COC(=O)C(O)(c1ccccc1)c1ccccc1 | inactive: 0.603% |
| CCc1cc(O)c([N+](=O)[O-])c(C)c1[N+](=O)[O-] | inactive: -0.457% |
| CC(C)(C)C(=O)NC(Sc1ccccc1)C(Cl)(Cl)Cl (stereo unspecified) | inactive: -1.12% |
| CCOc1ccc(C2=NCC(CBr)S2)cc1 (stereo unspecified) | inactive: 2.21% |
| O=P1(Nc2nc3ccc(Cl)cc3s2)COc2ccccc2O1 (stereo unspecified) | inactive: 0.542% |
